# Results reported in article PMC3334918, “Mutagenesis and Functional Studies with Succinate Dehydrogenase Inhibitors in the Wheat Pathogen Mycosphaerella graminicola” (PLoS ONE, 2012).
# Legend:
# Test in all cases: in vivo sensitivity, liquid culture growth (AE media)
# Type in all cases: cell-based, Mycosphaerella graminicola
# [1] = tested on: M. graminicola strain Izm7 (SDHC_N86K); conditions: C_N86K, ratio IC50mutant/IC50WT
# Description: (§1) To explore the sensitivity profiles conferred by amino acid substitutions at the cellular and mitochondrial level, we determined sensitivity towards 4 different compounds for 26 of the identified substitution types both in vivo using liquid culture growth (AE media) and in vitro using purified mitochondria and the succinate: Q0/DCPIP activity test (Table 3). […] Resistance factors (RF) were determined as the ratio IC50mutant/IC50WT. […] Qp site mutations are well known to influence SDH enzyme activity and stability upon catalysis, [13], [38], [41].
# (§2) Conidial cells were collected from 4 day old V8 agar plates (cultured at 18°C in the dark) using liquid AE and a cell spreader. Cell density was determined and cells re-suspended to a concentration of 5×10^5 cells ml^−1 in AE media. Sterile 96 wells microtiter plates with lids (Costar) were inoculated with 198 µl of this cell suspension (10^5 cells per well) and 2 µl of inhibitor (100× in DMSO). Final inhibitor concentrations were between 0.95 nM and 1 mM with uniform 4× dilution factor steps (11 inhibitor concentrations+1 DMSO control). Plates were incubated for 6 days at 19°C in the dark before cells were re-suspended and measured for growth (OD600 nm). IC50 values were determined by non linear curve fitting on the basis of measured OD values versus log inhibitor concentrations (GraphPad Prism 5.0 software).
# [2] = tested on: M. graminicola strain Flu41 (SDHB_S218F); conditions: B_S218F, ratio IC50mutant/IC50WT
# Description: as §1, §2
# [3] = tested on: M. graminicola strain Cbx101 (SDHD_D129S); conditions: D_D129S, ratio IC50mutant/IC50WT
# Description: as §1, §2
# [4] = tested on: M. graminicola strain Flu33 (SDHB_N271K); conditions: B_N271K, ratio IC50mutant/IC50WT
# Description: as §1, §2
# [5] = tested on: M. graminicola strain Flu7 (SDHB_N225I); conditions: B_N225I, ratio IC50mutant/IC50WT
# Description: as §1, §2
# [6] = tested on: M. graminicola strain Cbx56 (SDHB_R265P); conditions: B_R265P, ratio IC50mutant/IC50WT
# Description: as §1, §2
# [7] = tested on: M. graminicola strain Flu4 (SDHC_A84V); conditions: C_A84V, ratio IC50mutant/IC50WT
# Description: as §1, §2
# [8] = tested on: M. graminicola strain Bos59 (SDHB_H267Q); conditions: B_H267Q, ratio IC50mutant/IC50WT
# Description: as §1, §2
# [9] = tested on: M. graminicola strain Flu9 (SDHC_R87C); conditions: C_R87C, ratio IC50mutant/IC50WT
# Description: as §1, §2
# [10] = tested on: M. graminicola strain Bos64 (SDHC_T79I); conditions: C_T79I, ratio IC50mutant/IC50WT
# Description: as §1, §2
# [11] = tested on: M. graminicola strain Cbx76 (SDHC_H145R); conditions: C_H145R, ratio IC50mutant/IC50WT
# Description: as §1, §2
# [12] = tested on: M. graminicola strain Cbx29 (SDHB_H267L); conditions: B_H267L, ratio IC50mutant/IC50WT
# Description: as §1, §2
# [13] = tested on: M. graminicola strain Cbx106 (SDHB_N225H); conditions: B_N225H, ratio IC50mutant/IC50WT
# Description: as §1, §2
# [14] = tested on: M. graminicola strain Ol50 (SDHC_V88D); conditions: C_V88D, ratio IC50mutant/IC50WT
# Description: as §1, §2
# [15] = tested on: M. graminicola strain Cbx67 (SDHD_D129G); conditions: D_D129G, ratio IC50mutant/IC50WT
# Description: as §1, §2
# [16] = tested on: M. graminicola strain Cbx22 (SDHD_D129E); conditions: D_D129E, ratio IC50mutant/IC50WT
# Description: as §1, §2
# [17] = tested on: M. graminicola strain Cbx28 (SDHB_H267Y); conditions: B_H267Y, ratio IC50mutant/IC50WT
# Description: as §1, §2
# [18] = tested on: M. graminicola strain Flu75 (SDHB_P220L); conditions: B_P220L, ratio IC50mutant/IC50WT
# Description: as §1, §2
# [19] = tested on: M. graminicola strain Flu29 (SDHD_D129T); conditions: D_D129T, ratio IC50mutant/IC50WT
# Description: as §1, §2
# [20] = tested on: M. graminicola strain Izm1 (SDHC_H152R); conditions: C_H152R, ratio IC50mutant/IC50WT
# Description: as §1, §2
# [21] = tested on: M. graminicola strain Cbx1 (SDHB_I269V); conditions: B_I269V, ratio IC50mutant/IC50WT
# Description: as §1, §2
# [22] = tested on: M. graminicola strain Flu1 (SDHC_S83G); conditions: C_S83G, ratio IC50mutant/IC50WT
# Description: as §1, §2
# [23] = tested on: M. graminicola strain Cbx96 (SDHB_H267N); conditions: B_H267N, ratio IC50mutant/IC50WT
# Description: as §1, §2
# [24] = tested on: M. graminicola strain Flu21 (SDHC_A84I); conditions: C_A84I, ratio IC50mutant/IC50WT
# Description: as §1, §2
# [25] = tested on: M. graminicola strain Flu110 (SDHB_P220T); conditions: B_P220T, ratio IC50mutant/IC50WT
# Description: as §1, §2
# [26] = tested on: M. graminicola strain Cbx12 (SDHC_L85P); conditions: C_L85P, ratio IC50mutant/IC50WT
# Description: as §1, §2
SMILES,Resistance Factors (RFs) in vivo [1],Resistance Factors (RFs) in vivo [2],Resistance Factors (RFs) in vivo [3],Resistance Factors (RFs) in vivo [4],Resistance Factors (RFs) in vivo [5],Resistance Factors (RFs) in vivo [6],Resistance Factors (RFs) in vivo [7],Resistance Factors (RFs) in vivo [8],Resistance Factors (RFs) in vivo [9],Resistance Factors (RFs) in vivo [10],Resistance Factors (RFs) in vivo [11],Resistance Factors (RFs) in vivo [12],Resistance Factors (RFs) in vivo [13],Resistance Factors (RFs) in vivo [14],Resistance Factors (RFs) in vivo [15],Resistance Factors (RFs) in vivo [16],Resistance Factors (RFs) in vivo [17],Resistance Factors (RFs) in vivo [18],Resistance Factors (RFs) in vivo [19],Resistance Factors (RFs) in vivo [20],other results
O=C(NCCc1ncc(C(F)(F)F)cc1Cl)c1ccccc1C(F)(F)F [Fluopyram],49.9,18.0,1.9,10.0,17.5,2.8,19.0,0.9,6.1,2.2,2.0,22.4,8.0,5.9,5.6,1.3,0.6,5,11.5,11.5,Resistance Factors (RFs) in vivo [21]: 10.0; Resistance Factors (RFs) in vivo [22]: 126.8; Resistance Factors (RFs) in vivo [23]: 9.9; Resistance Factors (RFs) in vivo [24]: 31.9; Resistance Factors (RFs) in vivo [25]: 11.5; Resistance Factors (RFs) in vivo [26]: 5.8
O=C(Nc1ccccc1-c1ccc(Cl)cc1)c1cccnc1Cl [Boscalid],78.1,6.5,15.9,3.4,12.9,13.3,2.6,21.7,18.8,18.9,17.3,258.0,12.2,5.0,37.1,42.8,305.6,2.2,78.3,30.2,Resistance Factors (RFs) in vivo [21]: 4.2; Resistance Factors (RFs) in vivo [22]: 564.3; Resistance Factors (RFs) in vivo [23]: 3.4; Resistance Factors (RFs) in vivo [24]: 2.9; Resistance Factors (RFs) in vivo [25]: 6.1; Resistance Factors (RFs) in vivo [26]: 4.1
CC1=C(C(=O)Nc2ccccc2)SCCO1 [Carboxin],23.8,5.3,39.7,2.6,10.2,20.1,0.8,4.4,3.2,5.2,4.4,14.5,20.2,4.4,17.2,35.9,14.1,1.4,60.4,13.2,Resistance Factors (RFs) in vivo [21]: 12.4; Resistance Factors (RFs) in vivo [22]: 10.7; Resistance Factors (RFs) in vivo [23]: 12.6; Resistance Factors (RFs) in vivo [24]: 1.2; Resistance Factors (RFs) in vivo [25]: 0.1; Resistance Factors (RFs) in vivo [26]: 11.5
